Test results published in PMC11900278, “Expression, Characterization and Selective Chemical Inhibition of Essential Schistosoma mansoni Tegumental Acetylcholinesterase (SmTAChE)” (2025).

Sequences of proteins named here, by UniProt entry; tags and fusion partners are left off. Residues count along the entry.
UniProt P22303, 32-614 limits assumed: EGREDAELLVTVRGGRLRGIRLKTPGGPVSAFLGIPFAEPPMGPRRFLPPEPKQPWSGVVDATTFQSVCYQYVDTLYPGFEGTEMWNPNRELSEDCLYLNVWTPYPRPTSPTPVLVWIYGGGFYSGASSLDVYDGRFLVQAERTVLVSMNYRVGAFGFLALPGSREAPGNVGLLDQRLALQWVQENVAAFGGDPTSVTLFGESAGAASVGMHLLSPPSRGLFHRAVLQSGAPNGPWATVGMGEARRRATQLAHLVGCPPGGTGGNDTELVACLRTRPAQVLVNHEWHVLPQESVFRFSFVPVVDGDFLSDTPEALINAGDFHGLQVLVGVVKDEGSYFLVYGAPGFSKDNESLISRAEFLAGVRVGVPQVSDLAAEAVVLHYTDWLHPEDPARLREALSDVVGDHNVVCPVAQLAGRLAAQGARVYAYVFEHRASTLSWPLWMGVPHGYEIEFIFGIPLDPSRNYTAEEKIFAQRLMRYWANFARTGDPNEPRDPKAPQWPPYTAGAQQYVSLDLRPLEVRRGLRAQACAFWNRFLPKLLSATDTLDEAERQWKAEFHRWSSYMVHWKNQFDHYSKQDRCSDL

Tests used:
[1] = biological target: T1, rSmTAChE (Schistosoma mansoni, UniProt A0A3Q0KMM5); assay: MLPCN-Broad Validation Library screen against rSmTAChE (384-well Ellman assay); conditions: inhibitors at 7.5 µM, duplicate screen
[2] = biological target: T1, rSmTAChE; assay: IC50 determination with rSmTAChE (Ellman, 384-well); conditions: for pIC50: read-out: IC50 rSmTAChE, rSmTAChE
[3] = biological target: recombinant human AChE (rHsAChE) (Homo sapiens, UniProt P22303); assay: IC50 determination with recombinant human AChE; conditions: read-out: IC50 rHsAChE
[4] = biological target: tegumental AChE activity in live schistosomula parasites (Schistosoma mansoni, UniProt A0A3Q0KMM5); assay: Inhibitor impact on tegumental AChE activity of live schistosomula; conditions: for pIC50: read-out: IC50 Schistosomula, live schistosomula parasites
[5] = tested on: cholinesterase activity from mouse brain; conditions: earlier studies ref 65, 66; cited from earlier work
[6] = tested on: schistosome cholinesterase; conditions: earlier studies ref 65, 66; cited from earlier work
[7] = biological target: T1, rSmTAChE; assay: rSmTAChE kinetics and substrate specificity (modified Ellman method); conditions: for Kcat (turnover rate) / Km: rSmTAChE, substance used as substrate; for catalytic activity of rSmTAChE with substrate (in words): rate of hydrolysis, Figure 1B
[8] = tested on: native AChE on the tegumental surface of live schistosomula; assay: AChE activity displayed by living parasites (Michaelis–Menten kinetics); conditions: read-out: Km, native AChE on living schistosomula, ATCh as substrate

Compound: CCOC(=O)C1=C2c3ccc4ccccc4c3CC(C)(C)N2C(=O)C1=O
- Inhibition (%) of rSmTAChE [1]: 36.17%

Compound: COc1cccc2c1C(=O)OC2=Cc1ccc2c(c1)OCO2
- Inhibition (%) of rSmTAChE [1]: 33.23%

Compound: CCc1cc2c(=O)c(-c3ccc4c(c3)OCCO4)coc2c(CN2CCCCC2C)c1O (stereo not drawn)
- Inhibition (%) of rSmTAChE ([1]; 7.5 µM): 49.19%
- Inhibition (%) of rSmTAChE ([1]; listed as Compound #8, 7.5 µM): ~ 50%
- pIC50 [2]: 5.28
- pIC50 ([2]; listed as Compound #8): 5.26
- pIC50 [3]: < 3.70

Compound: Cc1ccc2c(c1C)NC(C(=O)O)C1CC=CC21 (stereo not drawn)
- Inhibition (%) of rSmTAChE ([1]; 7.5 µM): 49.44%
- Inhibition (%) of rSmTAChE ([1]; listed as #9, 7.5 µM): ~ 50%
- inhibition of rSmTAChE (in words) ([2]; increasing concentrations of inhibitor): not able to inhibit rSmTAChE in a dose-dependent manner

Compound: N=C(N)c1ccc(OCCCCCOc2ccc(C(=N)N)cc2)cc1
- Inhibition (%) of rSmTAChE ([1]; 7.5 µM): 69% and 68.69%
- Inhibition (%) of rSmTAChE ([1]; listed as Compound #5, 7.5 µM): ~ 69%

Compound: CCCCN(CCCC)CCCOC(=O)c1ccc(N)cc1
- Inhibition (%) of rSmTAChE ([1]; 7.5 µM): 68.57%
- Inhibition (%) of rSmTAChE ([1]; listed as butacaine, 7.5 µM): 69%

Compound: CNC(=O)Oc1ccc2c(c1)[C@]1(C)CCN(C)[C@@H]1N2C
- pIC50 [2]: 6.43
- pIC50 [4]: 6.59

Compound: COc1ccc(CCNCc2ccc(OCC(=O)N3CCCCC3)c(OC)c2)cc1OC
- pIC50 [2]: 4.51
- pIC50 [3]: 4.61

Compound: CC(C)NP(=O)(NC(C)C)OP(=O)(NC(C)C)NC(C)C
- AChE inhibition in live parasite assays (in words) ([4]; live schistosomula): No AChE inhibition

Compound: N/C(=N\OC(=O)/C=C/c1ccccc1)c1ccc(Br)cc1
- Inhibition (%) of rSmTAChE [1]: 33.74%

Compound: COc1cc(CNC2CCCCCCC2)ccc1OCC(=O)N1CCCCC1
- pIC50 [2]: 5.24
- pIC50 [3]: 4.76

Compound: Huperzine
- pIC50 [2]: 4.92
- pIC50 [4]: 5.22

Compound: CCN(CC)CCNc1ccc(CO)c2sc3ccccc3c(=O)c12
- Inhibition (%) of rSmTAChE [1]: 60.91%
- effect on cholinesterase activity from mouse brain (in words) [5]: not affected significantly
- inhibition of schistosome cholinesterase (in words) [6]: can inhibit schistosome cholinesterase

Compound: COc1cc(CNCCc2ccccc2F)ccc1OCC(=O)N1CCCCC1.Cl
- Inhibition (%) of rSmTAChE ([1]; 7.5 µM): 85% and 84.81%
- Inhibition (%) of rSmTAChE ([1]; listed as Compound #2, 7.5 µM): ~ 85%
- fold lower IC50 for rSmTAChE compared with human AChE ([2]; rSmTAChE versus rHsAChE): ~ 200 fold

Compound: propionylthiocholine iodide
- Kcat (turnover rate) [7]: 74.16 ± 0.35 S^−1
- Km [7]: 140 µM
- catalytic activity of rSmTAChE with substrate (in words) [7]: Very weak activity

Compound: COP(=O)(OC)OC=C(Cl)Cl
- pIC50 [2]: 6.92
- pIC50 [4]: 6.70

Compound: CC(=O)SCC[N+](C)(C)C
- Km [8]: 390 µM
- Kcat (turnover rate) [7]: 372.79 ± 38.6 S^−1
- Km [7]: 320 µM
- Kcat (turnover rate) ([7]; listed as acetylthiocholine): 373 ± 39 S^−1

Compound: butyrylthiocholine iodide
- Kcat (turnover rate) [7]: 10.67 ± 0.22 S^−1
- Km [7]: 330 µM
- catalytic activity of rSmTAChE with substrate (in words) [7]: almost no activity

Compound: CN(C)C(=O)Oc1cccc([N+](C)(C)C)c1
- pIC50 [2]: 5.89
- pIC50 [4]: 6.10

Compound: COc1cc(CNCCc2ccccc2F)ccc1OCC(=O)N1CCCCC1
- pIC50 ([2]; listed as Compound #2): 6.12

pIC50: −log10 of the molar value. Where “and” joins values, the source holds several entries; their conditions need not be identical. Identical values can stand only once. Like-named read-outs stand apart in the source and are kept apart here.
